Pooled drug test results. Numbers come from NIAID ChemDB, via PubChem.

Shared fields: whole-cell or culture tests; agent: Mycobacterium tuberculosis

MIC bound: limit read from a one-dose screen.

structure | measure | mutations | strain | tested at | method | cell line | value
CO[C@H]1/C=C/O[C@@]2(C)Oc3c(C)c(O)c4c(=O)c(c5oc6cc(N7CCN(C(C)C)CC7)cc(=O)c6nc5c4c3=C2O)NC(=O)/C(C)=C\C=C\[C@H](C)[C@H](O)[C@@H](C)[C@@H](O)[C@@H](C)[C@H](OC(C)=O)[C@@H]1C | MBC |  | 35 (rifampin-resistant) |  |  |  | 0.4 µg/mL
O=C(C[n+]1ccccc1)N/N=C(\CCC(=O)N(Cc1ccccc1)Cc1ccccc1)CC(=O)c1ccccc1.[Cl-] | inhibition |  | H37Rv | 12.5 µg/mL | BACTEC |  | 13%
N#CCCCSc1cc(C(=N)N)ccn1 | MIC |  | 331/81 |  |  |  | >1000 µM
COC(OC)c1c2c(O)c3c(O)c(C)c4c(c3c1O)C(=O)[C@@](C)(O/C=C/[C@H](OC)[C@@H](C)[C@@H](OC(C)=O)[C@H](C)[C@H](O)[C@H](C)[C@@H](O)[C@@H](C)/C=C/C=C(/C)C(=O)N2)O4 | MIC |  | H37Rv |  |  |  | 5 µg/mL
CCn1c2ccc(N(C)C)cc2c2cc(N(C)C)ccc21 | MIC bound |  | H37Rv |  | BACTEC |  | >12.5 µg/mL
N#CCCCSc1ccnc(C(=N)N)c1 | MIC |  | 331/81 |  |  |  | 500 µM
COCCOc1ccc(OCCOC)c(NCc2cnc3nc(N)nc(N)c3c2C)c1 | MIC |  | H37Ra |  |  |  | 32 µg/mL
C(=N\Nc1ccccn1)/NN/C=N/Nc1ccccn1 | inhibition |  | H37Rv | 12.5 µg/mL | BACTEC |  | 30%
O=C(O)[C@H]1/C(=C/CO)O[C@@H]2CC(=O)N21 | MIC90 |  | 190 isolates |  |  |  | >128 µg/mL
Cc1cn2c(C(=O)NCc3ccc(C(F)(F)F)cc3)c(C)nc2s1 | MIC | QcrB1 A317V | H37Rv |  | resazurin / fluorescence |  | 4.7 µM
O=C1C=CC(=Nc2cc(Cl)c(O)c(Cl)c2)C=C1 | inhibition |  | H37Rv | 12.5 µg/mL | BACTEC |  | -4%
CC(=O)CCCCCCCCCCCc1ccc2c(c1)OCO2 | MIC |  |  |  |  |  | 6.25 µg/mL
C=CCN1C(=O)/C(=C/c2ccc(N(C)C)cc2)S/C1=N\c1nc2ccccc2s1 | MIC |  | H37Rv |  |  |  | ≥25 µg/mL
CCOC(=O)CSc1ccnc(C#N)c1 | MIC |  | 331/81 |  |  |  | 1000 µM
CO[C@H]1/C=C/O[C@@]2(C)Oc3c(C)c(O)c4c(O)c(c(/C=N/N5CCN(C/C=C/c6ccccc6)CC5)c(O)c4c3C2=O)NC(=O)/C(C)=C\C=C\[C@H](C)[C@H](O)[C@@H](C)[C@@H](O)[C@@H](C)[C@H](OC(C)=O)[C@@H]1C | MBC |  | 2624 (rifampin-sensitive) |  |  |  | 0.1 µg/mL
Cc1ccccc1NC(=S)NNC(=O)c1sc2ccc(Cl)cc2c1Cl | inhibition |  | H37Rv | 6.25 µg/mL | BACTEC |  | 0%
CO[C@H]1/C=C/O[C@@]2(C)Oc3c(C)c(O)c4c(O)c(c(/C=N/N5CCN(C)CC5)c(O)c4c3C2=O)NC(=O)/C(C)=C\C=C\[C@H](C)[C@H](O)[C@@H](C)[C@@H](O)[C@@H](C)[C@H](OC(C)=O)[C@@H]1C | MIC90 |  | 190 isolates |  |  |  | 0.5 µg/mL
c1coc(-c2ncnc3nc[nH]c23)c1 | EC50 |  | H37Rv |  |  |  | >6.25 µg/mL
C=CCN1C(=O)/C(=C\c2ccco2)S/C1=N\c1nc2ccccc2s1 | MIC |  | H37Rv |  |  |  | ≥25 µg/mL
c1csc(-c2ncnc3c2ncn3C2CCOCC2)c1 | EC50 |  | H37Rv |  |  |  | >6.25 µg/mL
NNC(=O)c1ccncc1 | MIC |  | 2230 |  |  |  | >4 µg/mL
CCOc1ccc(OC)cc1NCc1cnc2nc(N)nc(N)c2c1C | MIC |  | H37Ra |  |  |  | 4 µg/mL
CO[C@H]1/C=C/O[C@@]2(C)Oc3c(C)c(O)c4c(O)c(c(/C=N/[n+]5ccccc5)c(O)c4c3C2=O)NC(=O)/C(C)=C\C=C\[C@H](C)[C@H](O)[C@@H](C)[C@@H](O)[C@@H](C)[C@H](OC(C)=O)[C@@H]1C | MIC |  | H37Rv |  |  |  | 5 µg/mL
COCOc1ccc(OCOC)c(NCc2cnc3nc(N)nc(N)c3c2C)c1 | MIC |  | H37Ra |  |  |  | 8 µg/mL
Clc1nc(-c2ccco2)c2ncn(C3CCOCC3)c2n1 | EC50 |  | H37Rv |  |  |  | >6.25 µg/mL
CCOC(=O)Nc1cc2c(c(N)n1)N=C(CN(C)c1ccccc1)CN2 | MIC bound |  | H37Rv |  | resazurin |  | >6.25 µg/mL
C[C@@H](O)[C@@H]1C(=O)N2C(C(=O)O)=C(SCCN)C[C@H]12 | MIC90 |  | 190 isolates |  |  |  | >128 µg/mL
CCOc1ccc(N2C(=O)/C(=C/c3cccc([N+](=O)[O-])c3)S/C2=N\c2ccccn2)cc1 | MIC |  | H37Rv |  |  |  | ≥25 µg/mL
N#Cc1cc(SCC(=O)NN)ccn1 | MIC |  | 331/81 |  |  |  | 500 µM
Cc1cc2c(c(O)c1-c1c(C)cc(O)c3c1C(=O)C=CC3=O)C(=O)C=CC2=O | MIC |  |  |  |  |  | >200 µg/mL
C=CCN1C(=O)/C(=C/c2ccccc2OC)S/C1=N\c1nc2ccccc2s1 | MIC |  | H37Rv |  |  |  | ≥25 µg/mL
CCCCCCCCCCC[C@@H]1CCC[C@@H](C)N1 | MIC |  | ETA-R |  |  |  | 6.4 µg/mL
CCCCCCCCCCCCc1ccc(NC(=O)C2=CCN(C)[C@@H]([C@H](O[C@@H]3O[C@H](CN)[C@@H](O)[C@H]3O)[C@H]3O[C@@H](n4ccc(=O)[nH]c4=O)[C@H](O)[C@@H]3O)C(=O)N2C)cc1 | MIC |  | H37Rv |  |  |  | 3.13 µg/mL
Clc1nc(-c2ccccc2)c2ncn(Cc3ccccc3)c2n1 | EC50 |  | H37Rv |  |  |  | <6.25 µg/mL
NC(=S)c1ccnc(SCC(O)CO)c1 | MIC |  | 331/81 |  |  |  | 250 µM
CCn1cc(C(=O)O)c(=O)c2ccc(C)nc21 | MIC90 | gyrA mutation S91P | H37Rv |  |  |  | >50 µM
Clc1ccc2sc(-c3nnc(Nc4ccccc4Cl)s3)c(Cl)c2c1 | inhibition |  | H37Rv | 6.25 µg/mL | BACTEC |  | 0%
Cc1cc2c(cc1C)[n+](=O)cc(C(=O)C/C(=N\NC(=S)NN)C(=O)Nc1cccc(C(F)(F)F)c1)n2[O-] | MIC |  | H37Rv |  | BACTEC |  | ≥12.5 µg/mL
Cc1cc2c(c(O)c1-c1c(C)cc(O)c3c1C(=O)C=CC3=O)C(=O)CC[C@H]2O | MIC |  |  |  |  |  | 50 µg/mL
CC1(C)S[C@@H]2[C@H](NC(=O)[C@H](N)c3ccc(O)cc3)C(=O)N2[C@H]1C(=O)O | MIC90 |  | 190 isolates |  |  |  | >128 µg/mL
C[n+]1c(-c2ccc(/C=N/NC(=O)N/N=C/c3ccc(-c4cn5ccccc5[n+]4C)cc3)cc2)cn2ccccc21.Cc1ccc(S(=O)(=O)[O-])cc1.Cc1ccc(S(=O)(=O)[O-])cc1 | MIC |  | H37Rv |  | BACTEC | VERO | 6.25 µg/mL
CCCCOc1ccc(OCC)c(NCc2cnc3nc(N)nc(N)c3c2C)c1 | MIC |  | H37Ra |  |  |  | >64 µg/mL
CO[C@H]1/C=C/O[C@@]2(C)Oc3c(C)c(O)c4c(O)c(c(/C=N/NC(=O)c5ccncc5)c(O)c4c3C2=O)NC(=O)/C(C)=C\C=C\[C@H](C)[C@H](O)[C@@H](C)[C@@H](O)[C@@H](C)[C@H](OC(C)=O)[C@@H]1C | MIC |  | H37Rv |  |  |  | 5 µg/mL
Cc1nn(C(=O)c2cccnc2)c(-c2ccccc2)c1N=Nc1ccc(C(=O)O)cc1 | MIC bound |  | H37Rv |  | resazurin |  | >6.25 µg/mL
COc1ccc(NC(=S)NNC(=O)c2sc3ccc(Cl)cc3c2Cl)cc1 | inhibition |  | H37Rv | 6.25 µg/mL | BACTEC |  | 0%
Cc1nc(N)c(=O)[nH]c1C | inhibition |  | H37Rv | 12.5 µg/mL | BACTEC |  | -4%
CCCCCCCCCC(=O)N[C@H]1[C@H](Oc2c3cc4cc2Oc2ccc(cc2Cl)[C@@H](O[C@@H]2O[C@H](CO)[C@@H](O)[C@H](O)[C@H]2NC(C)=O)[C@@H]2NC(=O)[C@H](NC(=O)[C@@H]4NC(=O)[C@H]4NC(=O)[C@@H](Cc5ccc(c(Cl)c5)O3)NC(=O)[C@H](N)c3ccc(O)c(c3)Oc3cc(O)cc4c3)c3ccc(O)c(c3)-c3c(O[C@H]4O[C@H](CO)[C@@H](O)[C@H](O)[C@@H]4O)cc(O)cc3[C@H](C(=O)O)NC2=O)O[C@H](CO)[C@@H](O)[C@@H]1O | MIC90 |  | 190 isolates |  |  |  | 64 µg/mL
CC(=O)/C=C/CCCCCCCCCCCCCCCCCCCCc1ccc2c(c1)OCO2 | MIC |  |  |  |  |  | >128 µg/mL
N#CCCSc1ccnc(C#N)c1 | MIC |  | 331/81 |  |  |  | 125 µM
CCOc1ccc(N2C(=O)/C(=C/c3ccc(NC(C)=O)cc3)S/C2=N\c2ccccn2)cc1 | MIC |  | H37Rv |  |  |  | ≥25 µg/mL
CCN(CC)CCNc1ccc([N+](=O)[O-])c2sc3ccccc3c(=O)c12 | MIC bound |  | H37Rv |  | BACTEC |  | ≤12.5 µg/mL
CO[C@H]1/C=C/O[C@@]2(C)Oc3c(C)c(O)c4c(O)c(c(/C=N/N(C)c5ccccc5)c(O)c4c3C2=O)NC(=O)/C(C)=C\C=C\[C@H](C)[C@H](O)[C@@H](C)[C@@H](O)[C@@H](C)[C@H](OC(C)=O)[C@@H]1C | MIC |  | H37Rv |  |  |  | 0.02 µg/mL
CCCOc1ccc(OCCC)c(NCc2cnc3nc(N)nc(N)c3c2C)c1 | MIC |  | H37Ra |  |  |  | 8 µg/mL
O=C(CN1CCOCC1)NC1=Nc2ncccc2C(=O)NN1 | inhibition |  | H37Rv | 6.25 µg/mL | resazurin |  | -29%
CCCOc1ccc(OCC)c(NCc2cnc3nc(N)nc(N)c3c2C)c1 | MIC |  | H37Ra |  |  |  | 8 µg/mL
COc1cccc2c1C(=O)c1c(O)c3c(c(O)c1C2=O)C[C@@](O)(/C(C)=N/NC(N)=O)CC3OC1CC(N)C(O)C(C)O1.Cl | MIC |  | PAS-R |  |  |  | 6.3 µg/mL
CO[C@H]1/C=C/O[C@@]2(C)Oc3c(C)c(O)c4c(O)c(c(/C=N/N5CCCC5)c(O)c4c3C2=O)NC(=O)/C(C)=C\C=C\[C@H](C)[C@H](O)[C@@H](C)[C@@H](O)[C@@H](C)[C@H](OC(C)=O)[C@@H]1C | MIC |  | H37Rv |  |  |  | 0.2 µg/mL
O=C1C=C(Nc2cccc(Cl)c2)c2ccccc2C1=O | inhibition |  | H37Rv | 6.25 µg/mL | resazurin |  | 101%
C=CCN1C(=O)/C(=C/c2ccc(OC)c(OC)c2)S/C1=N\c1nc2ccccc2s1 | MIC |  | H37Rv |  |  |  | ≥25 µg/mL
CO[C@H]1/C=C/O[C@@]2(C)Oc3c(C)c(O)c4c(O)c(c5c(c4c3C2=O)NC2(CCN(CC(C)C)CC2)N=5)=NC(=O)/C(C)=C\C=C\[C@H](C)[C@H](O)[C@@H](C)[C@@H](O)[C@@H](C)[C@H](OC(C)=O)[C@@H]1C | MIC |  | H37Rv-pHT (Tyr 526 mutation) |  |  |  | 16 µg/mL
CC1C(=O)CC2C(C)(C)CCCC2(C)C1(O)CCc1ccoc1 | inhibition |  | H37Rv | 12.5 µg/mL | BACTEC |  | 4%
COc1cc2c3c(cc4ccccc4c3c1OC)N(C)C(=O)C2=O | MIC |  |  |  |  |  | 32 µg/mL
Cn1nc(NC(=O)c2cc(N)nn2C)cc1C(=O)Nc1ccc2cc(S(=O)(=O)O)cc(S(=O)(=O)O)c2c1 | inhibition |  | H37Rv | 12.5 µg/mL | BACTEC |  | 0%
O=C(NNC(=S)Nc1ccc([N+](=O)[O-])cc1)c1sc2ccc(Cl)cc2c1Cl | inhibition |  | H37Rv | 6.25 µg/mL | BACTEC |  | 0%
NC(=O)C(=O)N/N=C1/C(=O)N(c2ccc(Cl)cc2Cl)C(=O)C1C(=O)Nc1ccc(Cl)cc1Cl | inhibition |  | H37Rv | 12.5 µg/mL | BACTEC |  | 2%
Clc1ccc2sc(-c3nnc(Nc4ccccc4)s3)c(Cl)c2c1 | inhibition |  | H37Rv | 6.25 µg/mL | BACTEC |  | 0%
Clc1c2c(c(Cl)c3c1=Nc1ncccc1O3)=Nc1ncccc1O2 | MIC |  | H37Rv |  | BACTEC |  | ≥12.5 µg/mL
COC1CCC(N=c2cc3n(-c4ccc(Cl)cc4)c4ccccc4nc-3cc2Nc2cccnc2C)CC1 | MIC |  | H37Rv |  | resazurin |  | 0.016 µg/mL
N#Cc1ncc(C(Cl)Cl)nc1Cl | inhibition |  | H37Rv | 12.5 µg/mL | BACTEC |  | 87%
CCn1cc(C(=O)O)c(=O)c2cc(F)c(N3CCNCC3)cc21 | MIC50 |  | 134 isolates |  |  |  | 4 µg/mL
N#C/C(=N\NC(=O)c1cccc(C(=O)N/N=C(\C#N)c2ccccc2Cl)n1)c1ccccc1Cl | MIC bound |  | H37Rv |  | BACTEC |  | >12.5 µg/mL
CCn1cc(C(=O)O)c(=O)c2cc([N+](=O)[O-])c3cccnc3c21 | MIC90 | gyrA mutation D94G | BCG |  |  |  | 2.67 µM

An empty or dashed field is not shown. ECn: concentration that inhibits the pathogen or its effect by n%. MIC50, MIC90 and the like: level of inhibition, or share of isolates inhibited. Inhibition is in % at the dose shown (toxicity tests: loss of growth or viability). Neighbouring rows are from separate reports.